Results of unrelated studies side by side (data: NIAID ChemDB).

Common to all: tests in culture; agent: HIV-1; endpoint: EC50

Conditions beyond the fields shown may differ between rows.

SMILES	read by	cells	strain or isolate	changes	conditions	result
Cc1cn([C@H]2C[C@H](N=[N+]=[N-])[C@@H](CO)O2)c(=O)[nH]c1=O	-	PBMC	RUD (RT-A98G)	RT-A98G	-	<0.01 µM
CCCCC/C=C\C/C=C\CCCCCCCC(=O)OCC1=C[C@H]2[C@@H]3C(C)(C)[C@]3(OC(C)=O)[C@H](O)[C@@H](C)[C@]2(O)[C@@H]2C=C(C)C(=O)[C@@]2(O)C1	cytopathic effect / microscopy / visual reading	MT-4	LAV-1	-	-	<15.6 µg/mL
Cc1cc(C#N)cc(C)c1Oc1nc(Nc2ccc(C#N)cc2)nc(N)c1Br	luciferase	HEK293T	94ug 114.1.6 D (N348I)	-	-	0.00726 µM
Cc1cc2c(c(-c3cc(C)cc4c3OP(=O)(OC[C@@H]3C=C[C@H](n5cc(C)c(=O)[nH]c5=O)O3)OC4)c1)OP(=O)(OC[C@@H]1C=C[C@H](n3cc(C)c(=O)[nH]c3=O)O1)OC2	cytopathic effect / syncytia	CEM/0 (wild type)	-	-	-	0.37 µM
[Li+]	antigen	C8166	IIIB	-	-	>1000 µg/mL
Cc1cn([C@H]2C[C@H](N=[N+]=[N-])[C@@H](CO)O2)c(=O)[nH]c1=O	luciferase	HeLa	NRTI resistant	RT-K65R	-	0.0098 µM
C#C[C@]1(CO)O[C@@H](n2cnc3c(N)nc(F)nc32)C[C@@H]1OC(=O)CCC	luminescence	U373-CD4-CXCR4	NL4-3	-	pseudotyped	0.0277 µM
CC(=O)O[C@@H]1C(=O)C2=C(C(=O)C[C@H]3C(C)(C)[C@@H](O)CC[C@]23C)[C@]2(C)C(=O)C[C@H]([C@@H](C)CC(=O)C[C@@H](C)C(=O)O)[C@@]12C	cytopathic effect / microscopy	MT-4	-	-	-	>1000 µM
Cc1cc(S(N)(=O)=O)ccc1NC(=O)COc1ccc(Cl)cc1C(=O)c1cc(Cl)cc(C#N)c1	β-galactosidase	MAGI	NNRTI-resistant (RT V106A Y181C)	RT-V106A Y181C	-	0.0009 µM
C#C[C@]1(CO)O[C@@H](n2cnc3c(NC(=O)CCCCCCCCCCCCC)nc(F)nc32)C[C@@H]1OC(C)=O	luminescence	U373-CD4-CXCR4	NL4-3	-	pseudotyped	0.0114 µM
CC(C)N1CN2C(=O)N(C)Cc3c(-c4cnn(Cc5ccc(F)cc5F)c4)c(=O)c(O)c(n32)C1=O	fluorescence	MT4-GFP	NL4-3	-	-	0.0746 µM
CC(=O)OC1C(=O)C2=C(C(=O)CC3C(C)(C)[C@@H](O)CC[C@]23C)[C@]2(C)[C@H](O)C[C@H]([C@H](C)CC(=O)CC(C)C(=O)O)[C@@]12C	cytopathic effect / microscopy	MT-4	-	-	-	>1000 µM
Fc1cccc(F)c1[C@H]1SCc2nc3ccccc3n21	cytopathic effect / MTT	MT-4	MN	-	-	0.04 µg/mL
C[C@H](Cn1cnc2c(N)ncnc21)OCP(=O)(O)O	XTT / p24	PBMC	IIIB	-	7 d	0.18 µM
CC(C)=CCN1c2cc(Cl)cc3[nH]c(=S)n(c23)C[C@@H]1C	-	MT-4	-	RT-K70R	-	<0.1 µM
CC(C)CN(C[C@@H](O)[C@H](Cc1ccccc1)NC(=O)O[C@H]1CCOC1)S(=O)(=O)c1ccc(N)cc1	p24 / ELISA	MT-2	IIIB	R41K	-	0.0473 µM
Cc1ccc(-c2ccc3c(c2)C=C(C(=O)Nc2ccc(C[N+](C)(C)C4CCOCC4)cc2)CCC3)cc1	entry / luminescence	TZM-bl	VB59	-	-	3.63 µM
Nc1ncnc2c1ncn2[C@H]1C=C[C@@H](OCP(=O)(O)O)O1	ATP	MT-2	IIIB	M41L D67N K70R L210W T215F K219Q	-	2.1 µM
Cc1cn([C@H]2CC[C@@H](CO)O2)c(=O)[nH]c1=O	plaque count	HT4 + HT4-6C	A012B Clinical isolate	-	-	200 µM
CCC(=O)c1ccc(F)c([C@@H]2C[C@@H]2NC(=O)Nc2ccc(C#N)cn2)c1O	absorbance	PBMC	NL4-3	-	-	0.0006 µM
C=C(C)[C@@]12OCO[C@@H]1[C@@H]1[C@H](O)[C@@](C)(O)[C@@H](OC(C)=O)[C@@]3(O)C(C[C@H](C)[C@@H]3O)[C@@]1(Oc1ccccc1)[C@H](C)[C@@H]2OC(=O)c1ccccc1	cytopathic effect / syncytia	C8166	IIIB	-	-	57.95 µg/mL
C[C@H](CC(=O)C[C@@H](C)[C@H]1CC(=O)[C@@]2(C)C3=C(C(=O)C[C@]12C)[C@@]1(C)CC[C@H](O)C(C)(C)[C@@H]1C[C@@H]3O)C(=O)O	cytopathic effect / microscopy	MT-4	-	-	-	>1000 µM
N#C/C=C1/c2cc(S)cc([N+](=O)[O-])c2-c2c1cc(S(=O)(=O)NCc1ccccc1)cc2[N+](=O)[O-]	cytopathic effect / syncytia / microscopy	C8166	IIIB	-	-	32.78 µM
CCCCCCCCCC(=O)O[C@@H]1[C@@H](C)[C@@]2(O)C(C=C(CO)C[C@]3(O)C(=O)C(C)=CC23)C2C(C)(C)[C@@]21OC(=O)C(C)CC	cytopathic effect / microscopy / visual reading	MT-4	LAV-1	-	-	<7.81 µg/mL
O=c1[nH]cnc2c1ncn2[C@H]1CC[C@@H](CO)O1	ATP	MT-2	IIIB	-	-	3.1 µM
C#C[C@@]1(CO)C=C[C@H](n2cc(C)c(=O)[nH]c2=O)O1	β-galactosidase	MAGI (CCR5) + MAGI	HXB2	RT-Y181C	-	1.5 µM
Cc1cn([C@H]2C[C@H](N=[N+]=[N-])[C@@H](CO)O2)c(=O)[nH]c1=O	plaque count	HT4 + HT4-6C	A012B Clinical isolate	-	-	0.01 µM
CCOCn1c(Cc2cc(C)cc(C)c2)c(CC)c(=O)[nH]c1=O	cytopathic effect / MTT / p24	Monocyte/macrophage + Monocytes/macrophages	JR-FL	-	-	0.00074 µM
CCCCCCCCCC(=O)O[C@@H]1[C@@H](C)[C@@]2(O)C(C=C(CO)C[C@]3(O)C(=O)C(C)=CC23)C2C(C)(C)[C@@]21OC(=O)C(C)CC	cytopathic effect / microscopy / visual reading	MT-4	LAV-1	-	-	<7.81 µg/mL
Cc1ccnc2c1NC(=O)c1cccnc1N2C1CC1	-	PBMC	RUD (RT-A98G)	RT-A98G	-	0.13 µM
O=c1[nH]cnc2c1ncn2[C@H]1CC[C@@H](CO)O1	β-galactosidase	MAGI (CCR5) + MAGI	HXB2	RT-K65R	-	10 µM
CC(C)CN(C[C@@H](O)[C@H](Cc1ccccc1)NC(=O)O[C@H]1CCOC1)S(=O)(=O)c1ccc(N)cc1	p24 / luminescence	PBMC	BaL	-	-	0.028 µM
C#C[C@]1(CO)O[C@@H](n2cnc3c(NC(=O)CCCCCCCCCCCCC)nc(F)nc32)C[C@@H]1OC(=O)CC(C)(C)c1c(C)cc(C)cc1OC(C)=O	luminescence	U373-CD4-CXCR4	NL4-3	-	pseudotyped	0.0415 µM
C=C(C)[C@@]1(O)[C@H](O)[C@@H]2[C@H](OC(C)=O)[C@@]3(C)O[C@@]4([C@@H]3OC(=O)c3ccccc3)[C@@H](OC(C)=O)[C@@H](C)C[C@H]4[C@@]2(O)[C@H](C)[C@@H]1OC(=O)c1ccccc1	cytopathic effect / syncytia	C8166	IIIB	-	-	62.49 µg/mL
Cc1cn([C@H]2C[C@H](N=[N+]=[N-])[C@@H](CO)O2)c(=O)[nH]c1=O	cytopathic effect / p24 / trypan blue	MT-4	IIIB	-	-	0.014 µM
COCCN1CN2C(=O)OCc3c(-c4cnn(Cc5ccc(F)cc5F)c4)c(=O)c(O)c(n32)C1=O	fluorescence	MT4-GFP	NL4-3	-	-	0.195 µM
Cc1cn([C@H]2C[C@H](N=[N+]=[N-])[C@@H](CO)O2)c(=O)[nH]c1=O	p24 / RT activity	PBMC	-	-	-	0.0041 µM
CC(C)=CCN1Cc2cc(Cl)cc3[nH]c(=S)n(c23)C[C@@H]1C	-	PBMC	BCF11	RT-A98G K103R	-	>6.25 µM
C/C=C(/C)C(=O)O[C@]12C(C3C=C(CO)C[C@]4(O)C(=O)C(C)=CC4[C@@]3(O)[C@H](C)[C@H]1OC(C)=O)C2(C)C	cytopathic effect / microscopy / visual reading	MT-4	LAV-1	-	-	<125 µg/mL
C=C(C)[C@@]1(O)[C@H](OC(C)=O)[C@@H]2[C@H](OC(C)=O)[C@@]3(C)O[C@@]4([C@@H]3OC(=O)c3ccccc3)[C@@H](OC(C)=O)[C@@H](C)C[C@H]4[C@@]2(O)[C@H](C)[C@@H]1OC(=O)c1ccccc1	cytopathic effect / syncytia	C8166	IIIB	-	-	67.68 µg/mL
COC(=O)[C@H](C)NP(=O)(OC[C@@H]1CC[C@H](n2cnc3c(N)ncnc32)C1)Oc1ccccc1	cytopathic effect / MTS	MT-4	IIIB	-	-	0.2 µM
C[C@H](Cn1cnc2c(N)ncnc21)OCP(=O)(O)O	p24 / ELISA / antigen	PBMCs	LJM (subtype B)	-	4 d	2 µM
Cc1nnc(C(C)C)n1C1C[C@H]2CC[C@@H](C1)N2CC[C@H](NC(=O)C1CCC(F)(F)CC1)c1ccccc1	cell fusion / luminescence	HeLa	-	-	-	0.001 µM
CCOCn1c(Sc2cc(C)cc(C)c2)c(CC)c(=O)[nH]c1=O	cytopathic effect / MTT / p24	MT-4	A012D	-	-	0.0027 µM
CC(C)Nc1cccnc1N1CCN(C(=O)c2cc3cc(NS(C)(=O)=O)ccc3[nH]2)CC1	cytopathic effect / MTS	MT-4	IIIB	-	-	0.018 µM
COc1ccnc2[nH]cc(C(=O)C(=O)N3CCN(C(=O)c4ccccc4)C[C@H]3C)c12	cell fusion / luminescence	HeLa	-	-	-	0.0352 µM
Cc1cn([C@H]2C[C@H](N=[N+]=[N-])[C@@H](CO)O2)c(=O)[nH]c1=O	luciferase / luminescence	TZM-bl	BaL	-	-	0.00597 µM
Cc1cn([C@H]2C[C@H](N=[N+]=[N-])[C@@H](CO)O2)c(=O)[nH]c1=O	p24 / ELISA / antigen	Macrophages	-	-	-	0.005 µM
CCCCCCCCCCCC(=O)O[C@@]12[C@H](OC(=O)C(C)CC)[C@@H](C)[C@@]3(O)[C@@H](C=C(CO)C[C@]4(O)C(=O)C(C)=C[C@@H]34)[C@@H]1C2(C)C	cytopathic effect / microscopy / visual reading	MT-4	LAV-1	-	-	<15.76 µg/mL
COC(=O)[C@H](CCSC)NP(=O)(OC[C@H]1C=C[C@@H](n2cnc3c(N)ncnc32)C1)Oc1ccccc1	cytopathic effect / MTS	MT-4	IIIB	-	-	1.4 µM
COC1CN2CN(C)C(=O)c3c(O)c(=O)c(C(=O)NCc4ccc(F)cc4F)c1n32	fluorescence	MT4-GFP	NL4-3	-	-	0.004 µM
CCCCCCCCCCCCCC(=O)O[C@@H]1[C@@H](C)[C@@]2(O)[C@@H](C=C(CO)C[C@]3(O)C(=O)C(C)=C[C@@H]23)[C@@H]2C(C)(C)[C@]12OC(C)=O	cytopathic effect / microscopy / visual reading	MT-4	LAV-1	-	-	<0.00048 µg/mL
Cc1cn([C@H]2C[C@H](N=[N+]=[N-])[C@@H](CO)O2)c(=O)[nH]c1=O	p24 / RT activity	PBMC	Clinical isolate	-	clinical isolate	0.00163 µM
Cc1cn([C@H]2C[C@H](N=[N+]=[N-])[C@@H](CO)O2)c(=O)[nH]c1=O	cytopathic effect / XTT	PBMC	TEKI (non-syncytium-inducing)	-	-	0.03 µM
CCCCCCCCCCCCCC(=O)O[C@@H]1[C@@H](C)[C@@]2(O)[C@@H](C=C(CO)C[C@]3(O)C(=O)C(C)=C[C@@H]23)[C@@H]2C(C)(C)[C@]12OC(C)=O	cytopathic effect / microscopy / visual reading	MT-4	LAV-1	-	-	<0.00048 µg/mL
COC(=O)[C@@H](Cc1c[nH]c2ccccc12)NP(=O)(OC[C@H]1C=C[C@@H](n2cnc3c(N)ncnc32)C1)Oc1ccccc1	cytopathic effect / MTS	MT-4	IIIB	-	-	0.16 µM
COc1ccc(-c2oc3c4c(cc(O)c3c(=O)c2O)OC(C)(C)CC4)cc1	PCR	CEMx174	BK132	-	-	3.27 µM
CCC[C@@H](c1ccc(C(F)(F)F)cc1)N1CCN(C2(C)CCN(C(=O)c3c(C)ncnc3C)CC2)C[C@@H]1C	entry	U-80	YU-2 Clinical isolates	-	-	0.00035 µM
CCN(c1nc(F)ccc1NC(C)(C)C)C1CCN(C(=O)c2cc3cc(NC(=O)N4CCN(C)CC4)ccc3[nH]2)CC1	ATP	MT-2	IIIB	8374-P47 GS-8374-resistant	-	0.0195 µM
C[C@H](CCC=C(CO)CO)[C@H]1CC[C@@]2(C)C3=CC[C@H]4C(C)(C)C(=O)CC[C@]4(C)C3=CC[C@]12C	cytopathic effect / microscopy	MT-4	-	-	-	<7.8 µM
CCCC[C@@H]1c2cc(CNC)ccc2[C@H](NC(=O)C(=O)Nc2ccc(Cl)c(F)c2)[C@H]1CN=C(N)N	luciferase / entry	Cf2Th-CD4/CCR5	-	-	-	>100 µM
CCCCC/C=C\C/C=C\CCCCCCCC(=O)OCC1=C[C@H]2[C@@H]3C(C)(C)[C@]3(OC(C)=O)[C@H](O)[C@@H](C)[C@]2(O)[C@@H]2C=C(C)C(=O)[C@@]2(O)C1	cytopathic effect / microscopy / visual reading	MT-4	LAV-1	-	-	<15.6 µg/mL

A second listing of 6 rows from above:

SMILES,read by,cells,strain or isolate,changes,conditions,result
CCN(c1nc(F)ccc1NC(C)(C)C)C1CCN(C(=O)c2cc3cc(NC(=O)N4CCN(C)CC4)ccc3[nH]2)CC1,ATP,MT-2,IIIB,8374-P47 GS-8374-resistant,-,0.0195 µM
Nc1ncnc2c1ncn2[C@H]1C=C[C@@H](OCP(=O)(O)O)O1,ATP,MT-2,IIIB,M41L D67N K70R L210W T215F K219Q,-,2.1 µM
C=C(C)[C@@]1(O)[C@H](OC(C)=O)[C@@H]2[C@H](OC(C)=O)[C@@]3(C)O[C@@]4([C@@H]3OC(=O)c3ccccc3)[C@@H](OC(C)=O)[C@@H](C)C[C@H]4[C@@]2(O)[C@H](C)[C@@H]1OC(=O)c1ccccc1,cytopathic effect / syncytia,C8166,IIIB,-,-,67.68 µg/mL
C[C@H](Cn1cnc2c(N)ncnc21)OCP(=O)(O)O,XTT / p24,PBMC,IIIB,-,7 d,0.18 µM
CC(=O)OC1C(=O)C2=C(C(=O)CC3C(C)(C)[C@@H](O)CC[C@]23C)[C@]2(C)[C@H](O)C[C@H]([C@H](C)CC(=O)CC(C)C(=O)O)[C@@]12C,cytopathic effect / microscopy,MT-4,-,-,-,>1000 µM
CCCCCCCCCC(=O)O[C@@H]1[C@@H](C)[C@@]2(O)C(C=C(CO)C[C@]3(O)C(=O)C(C)=CC23)C2C(C)(C)[C@@]21OC(=O)C(C)CC,cytopathic effect / microscopy / visual reading,MT-4,LAV-1,-,-,<7.81 µg/mL

An empty or dashed field is not shown. ECn is the concentration giving n% inhibition of infection, replication or growth.